Anti-infective test results gathered from many reports (values: NIAID ChemDB through PubChem).

Shared fields: cytotoxicity tests; cells: H9; read-out: CC50

Neighbouring rows are from separate reports.

smiles,method,value
C[C@H]1[C@H](C)CC[C@]2(C(=O)O)CC[C@]3(C)C(=CC[C@@H]4[C@@]5(C)CC[C@H](OC(=O)COCC(=O)O)C(C)(C)[C@@H]5CC[C@]43C)[C@H]12,-,48.2 µM
O=c1nccc(NS(=O)(=O)c2ccc(F)cc2F)[nH]1,ATP,>20 µM
CCOC(=O)c1cc(C(=O)c2ccc3ccccc3c2)n2ccc(C(=O)NCc3ccccn3)cc12,MTT,123.9 µM
CC1(C)CC[C@]2(C(=O)O)CC[C@]3(C)C(=CC[C@@H]4[C@@]5(C)CC[C@H](O)C(C)(C)[C@@H]5CC[C@]43C)[C@@H]2C1,-,47.8 µM
CC(C)CC(=O)N[C@H](C(=O)N[C@H](C(=O)N[C@@H](CC(C)C)[C@@H](O)CC(=O)N[C@@H](C)C(=O)N[C@@H](CC(C)C)[C@@H](O)CC(=O)O)C(C)C)C(C)C,-,>1000 µM
Nc1ncnc2c1ncn2[C@@H]1O[C@H](COC2(c3ccccc3)c3ccccc3Oc3ccccc32)[C@@H](OC2(c3ccccc3)c3ccccc3Oc3ccccc32)[C@H]1OC1CCCCO1,-,>100 µM
O=S(=O)(Nc1cccc2cccnc12)c1ccc(C(F)(F)F)cc1,ATP,5.1 µM
CCOC(=O)c1cc(C(=O)c2ccc3ccccc3c2)n2ccc(C(=O)c3ccncc3)cc12,MTT,137.3 µM
Nc1cc(S(=O)(=O)O)cc2cc(S(=O)(=O)O)cc(O)c12,-,>600 µg/mL
CC1(C)CC[C@]2(C(=O)O)CC[C@]3(C)C(=CC[C@@H]4[C@@]5(C)CC[C@H](OC(=O)CC(C)(C)C(=O)O)C(C)(C)[C@@H]5CC[C@]43C)[C@@H]2C1,-,19.2 µM
CC(CC(=O)O)CC(=O)OC[C@]12CC[C@@H](C(C)C)[C@@H]1[C@H]1CC[C@@H]3[C@@]4(C)CC[C@H](OC(=O)CC(C)CC(=O)O)C(C)(C)[C@@H]4CC[C@@]3(C)[C@]1(C)CC2,-,19.2 µM
CCc1cn([C@@H]2C[C@H](F)[C@@H](CO)O2)c(=O)[nH]c1=O,-,400 µM
COc1cc(C2(C(F)(F)F)N=N2)ccc1C(=O)NCCOCCOCCNC(=O)c1cc(C(=O)c2ccc3ccccc3c2)n2ccc(C(=O)c3ccccc3)cc12,MTT,174.6 µM
C[C@H]1[C@H](C)CC[C@]2(C(=O)O)CC[C@]3(C)C(=CC[C@@H]4[C@@]5(C)CC[C@H](OC(=O)CC(C)(C)C)C(C)(C)[C@@H]5CC[C@]43C)[C@H]12,-,>18 µM
CCOC(=O)c1cc(C(=O)c2ccc3ccccc3c2)n2ccc(C(=O)c3ccccc3)cc12,MTT,167.4 µM
NCCOCCOCCNC(=O)c1cc(C(=O)c2ccc3ccccc3c2)n2ccc(C(=O)c3ccccc3)cc12,MTT,13.6 µM
COc1cc(C2(C(F)(F)F)N=N2)ccc1C(=O)NCCOCCOCCNC(=O)c1cc(C(=O)c2ccc3ccccc3c2)n2ccc(C(=O)c3ccccc3)cc12,MTT,174.6 µM
O=S(=O)(Nc1cccc2cccnc12)c1ccccc1F,ATP,>20 µM
Nc1nc2c(ncn2[C@@H]2C=C[C@H](CO)C2)c(=O)[nH]1,-,>2000 µM
NCCOCCOCCNC(=O)c1cc(C(=O)c2ccc3ccccc3c2)n2ccc(C(=O)c3ccccc3)cc12,MTT,13.6 µM
[N-]=[N+]=NCCOCCOCCOc1cc(C2(C(F)(F)F)N=N2)ccc1C(=O)NCCOCCOCCNC(=O)c1cc(C(=O)c2ccc3ccccc3c2)n2ccc(C(=O)c3ccccc3)cc12,MTT,168.5 µM
COc1cnc2ccc(=O)n3c4ccccc4c1c23,-,>100 µg/mL
O=C(OCCOCCOCCNC(=O)c1cc(C(=O)c2ccc3ccccc3c2)n2ccc(C(=O)c3ccccc3)cc12)c1ccccc1,MTT,125.4 µM
O=S(=O)(Nc1cccc2cccnc12)c1ccc(F)cc1,ATP,5.1 µM
Nc1ccn(C2C[C@H](CO)[C@@H](CO)C2)c(=O)n1,-,>100 µg/mL
C=C(C)[C@@H]1CC[C@]2(C=O)CC[C@]3(C)[C@H](CC[C@@H]4[C@@]5(C)CCC(=O)C(C)(C)[C@@H]5CC[C@]43C)[C@@H]12,-,49 µM
O=c1ccn(C2C[C@H](CO)[C@@H](CO)C2)c(=O)[nH]1,-,>100 µg/mL
CCOC(=O)c1cc(C(=O)c2ccc3ccccc3c2)n2ccc(C(=O)N[C@@H](CCSC)CC(=O)O)cc12,MTT,43.3 µM
O=S(=O)(Nc1cccc2ccccc12)c1ccc(F)cc1F,ATP,7.1 µM
C=C(C)[C@@H]1CC[C@]2(C(=O)O)CC[C@]3(C)[C@H](CC[C@@H]4[C@@]5(C)CC[C@H](OC(=O)COCC(=O)O)C(C)(C)[C@@H]5CC[C@]43C)[C@@H]12,-,11.7 µM
CC1=C(/C=C/C(C)=C/C=C/C(C)=C/C(=O)O)C(C)(C)CCC1,MTT,>1 µM
O=[N+]([O-])c1cccc(S(=O)(=O)Nc2cccc3cccnc23)c1,ATP,>20 µM

A second listing of 2 rows from above:

smiles	method	value
CC1(C)CC[C@]2(C(=O)O)CC[C@]3(C)C(=CC[C@@H]4[C@@]5(C)CC[C@H](OC(=O)CC(C)(C)C(=O)O)C(C)(C)[C@@H]5CC[C@]43C)[C@@H]2C1	-	19.2 µM
COc1cnc2ccc(=O)n3c4ccccc4c1c23	-	>100 µg/mL

CCn: concentration that lowers growth or viability of the cells by n%. Blank or dashed fields: not listed here.